Results published in paper PMC10444775 (Scientific Reports, 2023).

B1: 7A9 VHH (VHH)
VHH: QVQLVESGGGLVQAGGSLRLSCSASGGTASRSAMGWFRQAPGKEREFVAGISRRNSGSTYVADSYEDSVKGRFTISRDNAKNTIYLQMNSLKPEDTAVYYCAAEPTLGWYVPRRSVEYEYWGQGTQVTVSS
B2: MERS spike protein aa 1-1337 on CHO K1 cells (natural protein)
chain: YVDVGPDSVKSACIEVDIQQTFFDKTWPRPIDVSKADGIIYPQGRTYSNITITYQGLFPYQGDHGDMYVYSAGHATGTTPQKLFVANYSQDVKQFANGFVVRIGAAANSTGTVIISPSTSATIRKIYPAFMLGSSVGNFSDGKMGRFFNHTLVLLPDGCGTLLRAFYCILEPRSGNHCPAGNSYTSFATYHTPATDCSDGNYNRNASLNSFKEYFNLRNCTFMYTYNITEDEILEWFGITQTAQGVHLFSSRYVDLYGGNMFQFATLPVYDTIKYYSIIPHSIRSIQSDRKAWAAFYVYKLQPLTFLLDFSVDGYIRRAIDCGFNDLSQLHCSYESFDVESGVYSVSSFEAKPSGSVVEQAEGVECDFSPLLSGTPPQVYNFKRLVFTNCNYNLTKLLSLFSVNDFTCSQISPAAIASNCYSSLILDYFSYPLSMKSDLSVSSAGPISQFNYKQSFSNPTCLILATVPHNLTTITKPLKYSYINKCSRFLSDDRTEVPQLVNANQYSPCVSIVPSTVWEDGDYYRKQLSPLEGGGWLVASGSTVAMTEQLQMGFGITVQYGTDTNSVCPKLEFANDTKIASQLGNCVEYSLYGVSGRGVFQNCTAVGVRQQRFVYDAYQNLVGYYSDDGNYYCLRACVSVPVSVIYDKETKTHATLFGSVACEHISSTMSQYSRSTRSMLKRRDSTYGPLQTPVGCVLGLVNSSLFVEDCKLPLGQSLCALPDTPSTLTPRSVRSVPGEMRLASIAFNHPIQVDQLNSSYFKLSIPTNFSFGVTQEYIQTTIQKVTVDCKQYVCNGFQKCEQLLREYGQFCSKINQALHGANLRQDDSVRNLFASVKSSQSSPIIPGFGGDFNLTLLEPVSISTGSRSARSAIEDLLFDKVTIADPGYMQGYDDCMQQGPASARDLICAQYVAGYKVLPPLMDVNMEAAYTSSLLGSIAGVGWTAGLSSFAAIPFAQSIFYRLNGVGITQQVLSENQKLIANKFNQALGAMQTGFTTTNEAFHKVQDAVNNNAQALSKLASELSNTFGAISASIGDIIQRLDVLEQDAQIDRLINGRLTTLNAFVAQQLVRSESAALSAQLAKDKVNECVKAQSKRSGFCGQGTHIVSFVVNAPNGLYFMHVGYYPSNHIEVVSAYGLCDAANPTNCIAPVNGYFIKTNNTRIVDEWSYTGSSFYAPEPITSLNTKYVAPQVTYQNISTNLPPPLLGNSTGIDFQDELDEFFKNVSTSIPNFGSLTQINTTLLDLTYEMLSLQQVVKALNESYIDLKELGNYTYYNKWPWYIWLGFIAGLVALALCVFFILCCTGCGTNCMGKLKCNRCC

Legend:
[1] = biological target: SARS-CoV prefusion-stabilized spike protein (SARS-CoV-PreS) (SARS-CoV (strain not named; reference …, UniProt P59594, K968P | V969P)
7A9 VHH-Fc = 7A9 VHH-Fc (llama); assay: flow cytometry on cells; details: one partner purified

| Binder | binding result [1] | binding result (7A9 VHH-Fc) |
| --- | --- | --- |
| B1 | binds |  |
| B2 |  | no binding |
